In PubChem BioAssay AID504332 (National Center for Advancing Translational Sciences (NCATS), 2011) one finds Potency data, which are given here for one molecule.

Sequences of proteins named here, by UniProt entry; tags and fusion partners are left off. Residues count along the entry.
UniProt Q96KQ7, 913-1193 limits assumed: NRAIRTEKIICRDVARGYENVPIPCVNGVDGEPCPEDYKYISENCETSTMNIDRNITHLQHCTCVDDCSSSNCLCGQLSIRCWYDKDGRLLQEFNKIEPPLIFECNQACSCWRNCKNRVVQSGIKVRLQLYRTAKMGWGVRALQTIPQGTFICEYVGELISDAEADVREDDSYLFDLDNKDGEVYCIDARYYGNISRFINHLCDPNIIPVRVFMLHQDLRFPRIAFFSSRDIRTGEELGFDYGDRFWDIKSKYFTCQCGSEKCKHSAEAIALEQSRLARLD

Molecules are shown by their SMILES. This is a selection; strong and weak results do not stand in their true shares. Inconclusive results are not listed. Activity calls are given as the source filed them. Calls come from the whole dose curve; as a rule, active = well fitted inhibition curve with a large enough effect; inconclusive = small, poorly fitted or top-dose-only effect; inactive = no such curve, though single readings can be large or run the other way.
Potency is the fitted concentration of half-maximal effect.

This experiment concerns the target Histone-lysine N-methyltransferase EHMT2 (Homo sapiens) (UniProt Q96KQ7). Kind of experiment: qHTS Assay for Inhibitors of Histone Lysine Methyltransferase G9a. Note: nearly all actives have a fitted effect of over 75% in size. Conditions: G9a H3K9 monomethylation, AlphaScreen, 2 h. On the technique in general: Quantitative high-throughput screening tests each substance at several concentrations.
On to `COc1ccc2cc([S+]([O-])Cc3ncc(C)c(OC)c3C)nc2c1`, for which the Potency was active: 5.97 µM.
